Anti-infective test results gathered from many reports (values: NIAID ChemDB through PubChem).

All rows: tests in culture; agent: Candida albicans; measure: MIC

Lines come from different laboratories, so protocols vary. Two numbers with a dash give a range or band. Blank or dashed fields: not listed here.

structure | strain | result
Cn1c(=O)c(-c2[nH][nH]c(=O)c2/C=N/c2ccccn2)c(O)c2ccccc21 | ATCC 10231 | 50 µg/mL
O=C1CCCC2=C1C(c1ccc(Cl)cc1)n1c(s/c(=C\c3ccc(Cl)cc3)c1=O)=N2 | AUCC-1720 | 100 µg/mL
CCCCCS(=O)(=O)[C@H](C)[C@](O)(Cn1cncn1)c1ccc(F)cc1F | KB-8 | 0.1 µg/mL
CCCCCCCCCCOc1ccc(CON2C(N)=NC(N)=NC2(C)C)cc1 | - | 15 µg/mL
C[C@H](n1nnnc1CCN1CCN(c2ccccc2)CC1)[C@](O)(Cn1cncn1)c1ccc(F)cc1F | - | 8 µg/mL
CCC(C)CC(C)CCCCCCCCC(=O)N[C@H]1C[C@@H](O)[C@@H](O)NC(=O)[C@@H]2[C@@H](O)CCN2C(=O)[C@H]([C@H](O)CC(N)=O)NC(=O)[C@H]([C@H](O)[C@@H](O)c2ccc(O)cc2)NC(=O)[C@@H]2C[C@@H](O)CN2C(=O)[C@H]([C@@H](C)O)NC1=O | 40 isolates | 32 µg/mL
N#CC1=C(N)OC2=C(CSc3ccccc32)C1c1cccc2ccccc12 | - | 25 µg/mL
C[C@@](O)(c1ccc(F)cc1)[C@](O)(Cn1cncn1)c1ccccc1Cl | KE-2 | >100 µg/mL
CC(O)C1NC(=O)C(CCc2ccc(O)cc2)NC(=O)C2C[C@@H](O)CN2C(=O)C(C(C)O)NC(=O)[C@@H](NC(=O)c2ccc(N3CCN(c4ccc(OCc5ccccc5)cc4)CC3)cc2)CCCNC(=O)C2C[C@H](N)CN2C1=O | ATCC 10231 | 0.2 µg/mL
C[C@](O)(c1ccc(F)cc1)[C@](O)(Cn1cncn1)c1ccccc1Cl | KE-2 | >100 µg/mL
C[C@H](n1nnc(CCN2CCN(c3ccc([N+](=O)[O-])cc3)CC2)n1)[C@](O)(Cn1cncn1)c1ccc(F)cc1F | V-01-191A-261 (resistant) | 2 µg/mL
Clc1ccc(-c2nc3ccccc3n2Cc2nnc(Nc3ccc(Br)cc3)s2)cc1 | - | 50 µg/mL
COC(=O)[C@@H]1N=C1/C=C\CCCCCCCCCCCCC(C)(C)C | ATCC 14503 | >64 µg/mL
CCCCCCS(=O)(=O)[C@H](C)[C@](O)(Cn1cncn1)c1ccc(F)cc1F | KB-8 | ≤0.013 µg/mL
Clc1ccc(-c2nc3ccccc3n2Cc2nnc(Nc3ccccc3Cl)s2)cc1 | - | 25 µg/mL
O=C(Nc1nc2ccc(NC(=O)[C@@H]3CCC[C@H](NCc4ccc5ccccc5c4)C3)cc2s1)C1CCCC1 | IFM 46909 (TIMM 3165) | 3.13 µM
CC[C@H](C)[C@H](N)C(=O)NS(=O)(=O)OC[C@H]1O[C@@H](CCn2nnc(Cc3ccc(Oc4ccccc4)cc3)n2)[C@H](O)[C@@H]1O | ATCC 10231 | >500 µg/mL
CCCCCOc1ccc(-c2ccc(-c3ccc(C(=O)N[C@H]4CCCNC(=O)C5C[C@H](NC(=O)CCc6ccccc6)CN5C(=O)C(C(C)O)NC(=O)C(CCc5ccc(O)cc5)NC(=O)C5C[C@@H](O)CN5C(=O)C(C(C)O)NC4=O)cc3)cc2)cc1 | ATCC CCH442 | 25 µg/mL
CCCCCCCCCCCCC/C=C\C1=NC1C(=O)OC | ATCC 14503 | 2–3 µg/mL
CCCCCOc1ccc(-c2ccc(-c3ccc(C(=O)N[C@H]4CCCNC(=O)C5C[C@H](NC(=O)OC)CN5C(=O)C(C(C)O)NC(=O)C(CCc5ccc(O)cc5)NC(=O)C5C[C@@H](O)CN5C(=O)C(C(C)O)NC4=O)cc3)cc2)cc1 | ATCC CCH442 | 0.2 µg/mL
Clc1ccc(-c2nc3ccccc3n2Cc2nnc(Nc3ccccc3)s2)cc1 | - | 12.5 µg/mL
CCCCCOc1ccc(CON2C(N)=NC(N)=NC2(C)C)cc1 | - | 30 µg/mL
CN1C(=O)/C(=c2/[nH][nH]c(=O)/c2=C\c2ccc(Cl)cc2)C(=O)c2ccccc21 | ATCC 10231 | >100 µg/mL
C[C@H](n1nnc(CCN2CCN(c3ccc(F)cc3)CC2)n1)[C@](O)(Cn1cncn1)c1ccc(F)cc1F | - | 2 µg/mL
CCCCCCCCCCCCC/C=C/C1=N[C@H]1C(=O)OC | ATCC 14503 | 8–9 µg/mL
COc1ccccc1-c1c(C#N)c(OC)nc2c1CSc1ccc(Cl)cc1-2 | - | 25 µg/mL
CCCCc1ccccc1N1CCN(CCc2nnnn2[C@@H](C)[C@](O)(Cn2cncn2)c2ccc(F)cc2F)CC1 | - | 0.5 µg/mL
CS[C@H](C)[C@](O)(Cn1cncn1)c1ccc(F)cc1F | KB-8 | 0.025 µg/mL
CCC(C)CC(C)CCCCCCCCC(=O)N[C@H]1C[C@@H](O)[C@@H](OCCN)NC(=O)[C@@H]2C[C@@H](O)CN2C(=O)[C@H]([C@H](O)CC(N)=O)NC(=O)[C@H]([C@H](O)[C@@H](O)c2ccc(O)cc2)NC(=O)[C@@H]2C[C@@H](O)CN2C(=O)[C@H]([C@@H](C)O)NC1=O | 40 isolates | 8–32 µg/mL
CCCCCOc1ccc(-c2ccc(-c3ccc(C(=O)N[C@H]4CCCNC(=O)C5C[C@H](O)N5C(=O)C(C(C)O)NC(=O)C(CCc5ccc(O)cc5)NC(=O)C5C[C@@H](O)CN5C(=O)C(C(C)O)NC4=O)cc3)cc2)cc1 | ATCC CCH442 | 0.39 µg/mL
NC1=NC2(CCCCC2)N(OCCCCCCCc2ccccc2)C(N)=N1 | - | >60 µg/mL
Cc1cc(=O)n(-c2ccc(N=Cc3c(-c4c(O)c5ccccc5n(C)c4=O)[nH][nH]c3=O)cc2)n1C | ATCC 10231 | >100 µg/mL
COc1cc(O)c2c(c1)C(=O)c1c(cc3c(c1O)-c1c(cc(C)c(C(=O)NC(CO)C(=O)O)c1O)[C@H](OC1OC(C)C(O)C(OC4OCC(O)C(O)C4O)C1O)C3O)C2=O | 83-2-14 (Juntendo) | 12.5 µg/mL
COc1cc(C2C(C#N)=C(N)OC3=C2CSc2ccccc23)ccc1O | - | 25 µg/mL
C[C@@](O)(c1ccc(F)cc1)[C@](O)(Cn1cncn1)c1ccc(F)cc1 | KE-2 | >100 µg/mL
CCCCCCCCCCCCCCCC1=N[C@H]1C(=O)OC | 96-489 | 8 µg/mL
CN1C(=O)/C(=c2/[nH][nH]c(=O)/c2=C\c2ccc(N)cc2)C(=O)c2ccccc21 | ATCC 10231 | >100 µg/mL
C[C@H]1[C@H](O)[C@@H](C)/C=C/C=C/C=C/C=C/C=C/C=C/C=C/[C@H](O[C@@H]2O[C@H](C)[C@@H](O)[C@H](N)[C@@H]2O)C[C@@H]2O[C@](O)(C[C@@H](O)C[C@@H](O)CC[C@H](O)[C@@H](O)C[C@@H](O)CC(=O)O[C@H]1C)C[C@H](O)[C@H]2C(=O)O | ATCC 90028 | 2.5 µg/mL
CCCCCOc1ccc(-c2ccc(-c3ccc(C(=O)N[C@H]4CCCNC(=O)[C@@H]5C[C@H](NC(=O)c6ccccc6)CN5C(=O)[C@H]([C@@H](C)O)NC(=O)[C@H](CCc5ccc(O)cc5)NC(=O)[C@@H]5C[C@@H](O)CN5C(=O)[C@H]([C@@H](C)O)NC4=O)cc3)cc2)cc1 | ATCC 62376 | 6.25 µg/mL
CC1(C)N=C(N)N=C(N)N1OCc1cccc(-c2cccc(CON3C(N)=NC(N)=NC3(C)C)c2)c1 | - | 60 µg/mL
O[C@H](c1ccc(Cl)cc1)[C@](O)(Cn1cncn1)c1ccc(Cl)cc1 | KE-2 | 50 µg/mL
CCn1c2c(c3ccccc31)C(=O)c1cc(C)cnc1C2=O | - | >200 µg/mL
N=C(N)c1ccc2nc(-c3ccc(-c4nc5ccc(C(=N)N)cc5[nH]4)[nH]3)[nH]c2c1 | Isolate CA2256 fluconazole-resistant | 0.78 µg/mL
C[C@H](n1nnc(CCN2CCN(c3cccc(Cl)c3)CC2)n1)[C@](O)(Cn1cncn1)c1ccc(F)cc1F | V-01-191A-261 (resistant) | 4 µg/mL
NC1=NC2(CCCCC2)N(OCCCCCCCCCCCCc2ccccc2)C(N)=N1 | - | 1.9 µg/mL
CCCS[C@H](C)[C@](O)(Cn1cncn1)c1ccc(F)cc1F | KB-8 | ≤0.013 µg/mL
CCCC(C)Oc1ccc(CON2C(N)=NC(N)=NC2(C)C)cc1 | - | 60 µg/mL
O[C@H](c1ccc(Cl)cc1)[C@](O)(Cn1cncn1)c1ccc(Cl)cc1Cl | KE-2 | 100 µg/mL
CCON1C(N)=NC(N)=NC1(C)C | - | >60 µg/mL
C[C@](O)(c1ccc(F)cc1)[C@](O)(Cn1cncn1)c1ccc(F)cc1 | KE-2 | >100 µg/mL
Cc1ccc(CON2C(N)=NC(N)=NC23CCCCC3)c2ccccc12 | - | 62.5 µg/mL
COc1ccccc1C1C(C#N)=C(N)OC2=C1CSc1ccccc12 | - | 50 µg/mL
Fc1cccc(Nc2nnc(Cn3c(-c4ccc(Cl)cc4)nc4ccccc43)s2)c1 | - | 50 µg/mL
CN1C(=O)/C(=c2/[nH][nH]c(=O)/c2=C\c2ccc3c(c2)OCO3)C(=O)c2ccccc21 | ATCC 10231 | 50 µg/mL
O=C1CCCC2=C1C(c1ccc(F)cc1)N1C(=O)CSC1=N2 | AUCC-1720 | 100 µg/mL
COc1ccc(C[C@H](N)C(=O)N[C@H]2[C@@H](O)[C@H](n3cnc4c(N)ncnc43)O[C@@H]2C(=O)O)cc1 | FP-620 | 0.2 µg/mL
CC(O)C1NC(=O)C(CCc2ccc(O)cc2)NC(=O)C2C[C@@H](O)CN2C(=O)C(C(C)O)NC(=O)[C@@H](NC(=O)c2ccccc2)CCCNC(=O)C2C[C@H](N)CN2C1=O | ATCC 10231 | >100 µg/mL
COc1ccc(C2C(C#N)=C(N)OC3=C2CSc2ccccc23)cc1OC | - | 25 µg/mL
CCCCCOc1ccc(-c2ccc(-c3ccc(C(=O)N[C@H]4CCCNC(=O)C5C[C@H](NC(=O)CC)CN5C(=O)C(C(C)O)NC(=O)C(CCc5ccc(O)cc5)NC(=O)C5C[C@@H](O)CN5C(=O)C(C(C)O)NC4=O)cc3)cc2)cc1 | ATCC CCH442 | 0.39 µg/mL
CCCC[C@@](O)(c1ccc(F)cc1)[C@](O)(Cn1cncn1)c1ccccc1Cl | KE-2 | >100 µg/mL
N[C@H]1CCC[C@H]1C(=O)O | 83-2-14 | 5 µg/mL

8 of the rows above, restated:

structure	strain	result
Cc1cc(=O)n(-c2ccc(N=Cc3c(-c4c(O)c5ccccc5n(C)c4=O)[nH][nH]c3=O)cc2)n1C	ATCC 10231	>100 µg/mL
CCCCCOc1ccc(-c2ccc(-c3ccc(C(=O)N[C@H]4CCCNC(=O)[C@@H]5C[C@H](NC(=O)c6ccccc6)CN5C(=O)[C@H]([C@@H](C)O)NC(=O)[C@H](CCc5ccc(O)cc5)NC(=O)[C@@H]5C[C@@H](O)CN5C(=O)[C@H]([C@@H](C)O)NC4=O)cc3)cc2)cc1	ATCC 62376	6.25 µg/mL
CCCCCCCCCCCCC/C=C\C1=NC1C(=O)OC	ATCC 14503	2–3 µg/mL
CCON1C(N)=NC(N)=NC1(C)C	-	>60 µg/mL
COc1cc(O)c2c(c1)C(=O)c1c(cc3c(c1O)-c1c(cc(C)c(C(=O)NC(CO)C(=O)O)c1O)[C@H](OC1OC(C)C(O)C(OC4OCC(O)C(O)C4O)C1O)C3O)C2=O	83-2-14 (Juntendo)	12.5 µg/mL
C[C@@](O)(c1ccc(F)cc1)[C@](O)(Cn1cncn1)c1ccccc1Cl	KE-2	>100 µg/mL
COc1ccccc1C1C(C#N)=C(N)OC2=C1CSc1ccccc12	-	50 µg/mL
COC(=O)[C@@H]1N=C1/C=C\CCCCCCCCCCCCC(C)(C)C	ATCC 14503	>64 µg/mL